Reference: PubChem BioAssay AID504761 (Drosophila RNAi Screening Center, 2011)
Test: 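Fly genes whose silencing reduces dengue virus type 2 infection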 (primary screen). Cell system: D.Mel-2 cells from Drosophila. Reagents: long dsRNA against Drosophila genes. Challenge: infection with dengue virus type 2; dose and infection time not stated. Measured: 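Per well on two replicate plates, imaging gave the percent of cells positive for viral envelope protein, ranked by infection, and a nuclear count of cells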. Direction: infection score: higher = more virus-infected cells. Call rule: 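Low infection ranks in the two replicates (chance level up to 0.065) followed by a retest with a 1.5-fold or larger significant decrease, p below 0.05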. Calls: active = confirmed: knock-down lowers infection; inactive = not picked or not confirmed.
The deposit covers about 22,000 reagents; this is an unselected part of those that have a named target and a result. Over the whole deposit, 116 (0.52%) are marked active. 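Calls depend on retest data that are not deposited; infection was ranked per plate without normalising between plates; the unit of the infection score is not given.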 Unmarked entries are inactive. Further read-outs or replicates are left out here. Reagent sequences are not shown. The record does not give: the amount of reagent, the time to read-out.

no.	Gene	dsRNA	infection score, replicate 1	infection score, replicate 2
1	Arl8 (ADP ribosylation factor-like 8)	DRSC16334	4	4.85
2	CG8509	DRSC20109	3.12	1.89
3	btl (breathless)	DRSC11331	0.66	1.45
4	pot (papillote)	DRSC19850	1.32	4.93
5	pot (papillote)	DRSC26969	5.3	11.9
6	Not10 (CCR4-NOT transcription complex subunit 10)	DRSC14129	10.6	21.5
7	CG4949	DRSC19926	3.71	2.22
8	TyrRS-m (Tyrosyl-tRNA synthetase, mitochondrial)	DRSC04286	8.29	14.1
9	CG32806	DRSC21699	0.93	21.4
10	CG32806	DRSC28307	8.82	10.3
11	CG7900	DRSC16336	5.11	10.7
12	CG7900	DRSC21343	16.3	
13	mas (masquerade)	DRSC08720	16.4	14.2
14	mas (masquerade)	DRSC28905	10.1	3.05
15	RpL5 (Ribosomal protein L5)	DRSC03801	2.36	3.23
16	RpL5 (Ribosomal protein L5)	DRSC29038	11.1	
17	vret (vreteno)	DRSC15640	4.68	7.43
18	link	DRSC06368	4.57	7.14
19	link	DRSC23511	3.5	3.3
20	CG18568	DRSC06768	6.13	11.8
21	CG18568	DRSC24546	5.24	2.95
22	CG7530	DRSC16255	2.27	2.08
23	CG7530	DRSC25476	9.05	6.24
24	velo (veloren)	DRSC08841	1.28	0.33
25	velo (veloren)	DRSC09698	3.41	12
26	velo (veloren)	DRSC27497	4.46	8.8
27	Ent3 (Equilibrative nucleoside transporter 3)	DRSC09822	4.49	7.32
28	Ent3 (Equilibrative nucleoside transporter 3)	DRSC29706	21.8	9.37
29	Txl (Thioredoxin-like)	DRSC11310	0.41	3.28
30	CG15554	DRSC15092	8.12	2.8
31	Treh (Trehalase)	DRSC04548	9.77	19.4
32	Treh (Trehalase)	DRSC28721	9.41	6.44
33	CG1116	DRSC12166	3.51	3.06
34	CG14007	DRSC02339	2.4	2.2
35	Nprl3 (Nitrogen permease regulator-like 3)	DRSC11044	7.24	0.7
36	Snx17 (Sorting nexin 17)	DRSC02884	15.7	14.8
37	Snx17 (Sorting nexin 17)	DRSC28893	27.1	23.9
38	CG43795	DRSC04192	6.73	13.3
39	CG43795	DRSC04193	18.8	14.3
40	CG43795	DRSC04194	12.7	3.2
41	CG43795	DRSC04309	2.74	7.82
42	CG43795	DRSC04310	10.2	10.8
43	CG43795	DRSC22826	1.14	15.4
44	CG43795	DRSC26752	3.39	12.9
45	Mal-A1 (Maltase A1)	DRSC07461	9.93	11.9
46	Mal-A1 (Maltase A1)	DRSC29096	19.7	17.2
47	His3.3A (Histone H3.3A)	DRSC03343	1.24	2.27
48	His3.3A (Histone H3.3A)	DRSC25053	0.94	1.98
49	CG15580	DRSC12266	3.84	11.8
50	CG15580	DRSC24180	3.02	27.1
51	meru	DRSC09400		0.71
52	meru	DRSC10215	0.37	2.44
53	CG3251	DRSC00586	23.3	9.59
54	CG11741	DRSC14367	10.5	8.84
55	CG1090	DRSC12150	7.74	4.35
56	CG1090	DRSC21604	4.35	
57	Psi (P-element somatic inhibitor)	DRSC07519	10.1	9
58	Psi (P-element somatic inhibitor)	DRSC25220	3.67	4.25
59	Pal1 (Peptidyl-alpha-hydroxyglycine-alpha-amidating lyase 1)	DRSC06106	2.99	7.59
60	Syx17 (Syntaxin 17)	DRSC08591	9.69	1.86
61	CG15403	DRSC00417	7.3	4.06
62	CG4563	DRSC04474	8.21	12.9
63	Dus3 (Dihydrouridine synthase 3)	DRSC02059	19.7	3.97
64	Dus3 (Dihydrouridine synthase 3)	DRSC30102	4.58	8.75
65	CG31515	DRSC13610	2.88	2.49
66	Pex13 (Peroxin 13)	DRSC06877	16.2	2.09
67	CG15373	DRSC19663	8.44	5.92
68	CG17625	DRSC15249	1.83	19.7
69	crb (crumbs)	DRSC16927	2.4	2.51
70	Ip6k (Inositol hexakisphosphate kinase)	DRSC04054	15.1	41.5
71	Ip6k (Inositol hexakisphosphate kinase)	DRSC24285	6.67	8.38
72	Trissin	DRSC14994	14.2	6.01
73	Myc	DRSC23360	0.89	3.56
74	CG30114	DRSC05707		0.66
75	CG30114	DRSC25433	10.3	3.31

Reprinted from the entries so far, 10 entries:
no.	Gene	dsRNA	infection score, replicate 1	infection score, replicate 2
27	Ent3 (Equilibrative nucleoside transporter 3)	DRSC09822	4.49	7.32
28	Ent3 (Equilibrative nucleoside transporter 3)	DRSC29706	21.8	9.37
29	Txl (Thioredoxin-like)	DRSC11310	0.41	3.28
30	CG15554	DRSC15092	8.12	2.8
31	Treh (Trehalase)	DRSC04548	9.77	19.4
32	Treh (Trehalase)	DRSC28721	9.41	6.44
33	CG1116	DRSC12166	3.51	3.06
34	CG14007	DRSC02339	2.4	2.2
35	Nprl3 (Nitrogen permease regulator-like 3)	DRSC11044	7.24	0.7
36	Snx17 (Sorting nexin 17)	DRSC02884	15.7	14.8
